Experimental data reported in PubChem BioAssay AID602156 (GNF / Scripps Winzeler lab, 2011).
pIC50: −log10 of the molar value.

Tested on: P. yoelii liver stage in HepG2-A16-CD81EGFP, imaging
Experiment: Plasmodium liver-stage growth inhibition, dose response, imaging, Malaria Box, P. yoelii, HepG2-A16-CD81EGFP (AID 602156);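 further: infected cells exposed to compound for 48 hours before fixation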

In the case of `CCCN(CCC)[P+](CC)(N(CCC)CCC)N(CCC)CCC`, the pIC50 was 6.59.
